According to patent US11980632B2 (priority 2020, dated 2024):

Key:
[1] = test system: H1N1 influenza virus; settings: 0.1 or 1.0 g/L, 0, 1 and 3 passages, MDCK, H1N1, 18 hours; regardless of concentration and number of passages
[2] = test system: influenza H1N1 virus; settings: MDCK medium with 1 or 10 g/L 2′-FL, 0 to 3 passages, H1N1, 72 hours; regardless of concentration or number of passages
[3] = test system: nitric oxide (NO) production in A549 cells; settings: A549 cells passage-cultured 3 passages at 1.0 g/L, H1N1 infected, medium collected at 48 hours
[4] = test system: corona-pseudovirus; settings: Calu-3, 4 passages, 1 g/L 3-FL

## C[C@@H]1OC([C@]2(O)[C@H](O[C@H]3[C@H](O)[C@@H](O)C(O)O[C@@H]3CO)O[C@H](CO)[C@H](O)[C@@H]2O)[C@@H](O)[C@H](O)[C@@H]1O (stereo partly shown)
[1]
  cytopathic effect reduction: did not exhibit a great cytopathic effect reduction
[2]
  reduction in plaque formation: did not exhibit a reduction in plaque formation

## C[C@@H]1OC([C@]2(O)[C@H](O[C@@H]3O[C@H](CO)[C@H](O)[C@H](O)[C@H]3O)[C@@H](CO)OC(O)[C@@H]2O)[C@@H](O)[C@H](O)[C@@H]1O (stereo partly shown)
[3]
  NO concentration relative to the experimental group treated with PBS: about 3.9 fold
[4]
  fluorescence compared to the control group passage-cultured in normal culture medium: ¼
